Results of unrelated studies side by side (data: NIAID ChemDB).

All rows: tests in culture; agent: Mycobacterium tuberculosis

Neighbouring rows are from separate reports. Inhibition is in % at the dose shown (toxicity tests: loss of growth or viability). ECn: concentration that inhibits the pathogen or its effect by n%. MIC bound: limit read from a one-dose screen. An empty or dashed field is not shown.

smiles,strain or isolate,method,read-out,dose,value
c1ccc(C(NCCNC2CCCCCCC2)c2ccccc2)cc1,,,MIC,,12.5 µM
O=C1c2ccccc2C(=O)c2c1cccc2-n1nnc2cc(Cl)c(Cl)cc21,H37Rv,BACTEC,inhibition,12.5 µg/mL,8%
Ic1ccc2oc3ccccc3c2c1,H37Rv,,MIC,,>100 µg/mL
CCCCCCCCCCCNCCNCCC(c1ccccc1)c1ccccc1,,,MIC,,12.5 µM
O=C(Nc1ccc(Cl)cc1)Nc1nnc2nc(C(C(=O)c3ccc(F)cc3)c3nc4nnc(NC(=O)Nc5ccc(Cl)cc5)n4[nH]c3=O)c(=O)[nH]n12,H37Rv,BACTEC,inhibition,12.5 µg/mL,46%
CCCCCCCC/C(C)=N\NC(N)=O,H37Rv,,MIC,,>100 µg/mL
O=C(NNC(=S)Nc1ccc(S(=O)(=O)N2CCCCC2)cc1)c1ccncc1,H37Rv,resazurin,inhibition,6.25 µg/mL,97%
O=C(NCCCCC(O)C(=O)[O-])c1ccccc1.O=C(NCCCCC(O)C(=O)[O-])c1ccccc1.[Ca+2],H37Rv,,MIC,,100 µg/mL
CO[C@H]1/C=C/O[C@@]2(C)Oc3c(C)c(O)c4c(=O)c(c5oc6cc(N7CCN(CC(C)C)CC7)cc(=O)c6nc5c4c3=C2O)NC(=O)/C(C)=C\C=C\[C@H](C)[C@H](O)[C@@H](C)[C@@H](O)[C@@H](C)[C@H](OC(C)=O)[C@@H]1C,33 (rifampin-resistant),,MBC,,0.05 µg/mL
CCOc1ccccc1N(C)C=O,H37Rv,,MIC,,>100 µg/mL
Clc1ccc(CCNCCNC2CCc3ccccc32)c(Cl)c1,,,MIC,,50 µM
NC(N)=NS(=O)(=O)c1ccccc1,H37Rv,,MIC,,50 µg/mL
COc1ccc(/C=C/C(=O)c2cccc(F)c2O)cc1,H37Rv,,inhibition,12.5 µg/mL,45%
COC(=O)c1ccc(/C=C(\c2ccc([N+](=O)[O-])o2)S(=O)(=O)c2ccc(NC(C)=O)cc2)o1,H37Rv,BACTEC,inhibition,12.5 µg/mL,21%
c1csc(CCc2cccs2)c1,H37Rv,,MIC,,>100 µg/mL
COc1cc(C)c2c(=O)c3c(oc2c1)C(=O)c1c(O)c(OC)cc(O)c1C3=O,ETA-R,,MIC,,12.5 µg/mL
O=C(/C=C/c1ccccc1)c1cccc(Br)c1O,,,EC50,,<12.5 µg/mL
CC(NCCNC1CCCCCCC1)c1cccc2ccccc12,,,MIC,,25 µM
Nc1cccc2c1C(=O)c1ccccc1C2=O,H37Rv,,MIC,,>100 µg/mL
CC1CCC(NCCNC[C@@H]2CC[C@H]3C[C@@H]2C3(C)C)CC1,,,MIC,,12.5 µM
CCOc1ccccc1CNCCNCCc1ccccc1Cl,,,MIC,,25 µM
COc1cc(C(=O)OC(CN2CCOCC2)Cn2nnc3c(OC)c(OC)c(OC)cc3c2=O)cc(OC)c1OC,H37Rv,BACTEC,inhibition,12.5 µg/mL,7%
COC(=O)c1cc(C(=O)O)cc([N+](=O)[O-])c1,H37Rv,,MIC,,>100 µg/mL
C[C@@H]1[C@H]2C[C@@H](C[C@H]1NCCNC1CCCCCCC1)C2(C)C,,,MIC,,6.25 µM
Cc1cc(O)ccc1O,H37Rv,,MIC,,100 µg/mL
CO[C@H]1/C=C/O[C@@]2(C)Oc3c(C)c(O)c4c(O)c(c(/C=N/N5CCN(C/C=C/c6ccccc6)CC5)c(O)c4c3C2=O)NC(=O)/C(C)=C\C=C\[C@H](C)[C@H](O)[C@@H](C)[C@@H](O)[C@@H](C)[C@H](OC(C)=O)[C@@H]1C,2219 (rifampin-resistant),,MIC,,0.4 µg/mL
CCOCCCNCCNC[C@]1(C)CCC[C@]2(C)c3ccc(C(C)C)cc3CC[C@@H]12,,,MIC,,25 µM
OC(c1cc(C23CC4CC(CC(C4)C2)C3)nc2c(Cl)cc(Cl)cc12)C1CCCCN1,H37Rv,resazurin,MIC bound,,<6.25 µg/mL
CCCCC(CC)CN1CN(CC(CC)CCCC)CC(C)(NCCNCc2ccc(OC)cc2OC)C1,,,MIC,,25 µM
CCCCCCCCCCCNCCN[C@H](CO)Cc1ccc(Cl)cc1,,,MIC,,25 µM
CO[C@H]1/C=C/O[C@@]2(C)Oc3c(C)c(O)c4c(O)c(c5[nH]cnc5c4c3C2=O)NC(=O)/C(C)=C\C=C\[C@H](C)[C@H](O)[C@@H](C)[C@@H](O)[C@@H](C)[C@H](OC(C)=O)[C@@H]1C,H37Rv,BACTEC,MIC,,1.56 µg/mL
O=C1CC(c2ccccc2)Oc2ccc(Cl)cc21,H37Rv,,EC50,,>12.5 µg/mL
Clc1cc(-c2ccccc2)oc1-c1ccccc1,H37Rv,,MIC,,>100 µg/mL
c1ccc(C(CNCCNCC(c2ccccc2)c2ccccc2)c2ccccc2)cc1,,,MIC,,37.5 µM
O=C1C=C(C2OC(CI)C(O)C2O)C(=O)N1,H37Rv,BACTEC,MIC bound,,>12.5 µg/mL
COCC(=O)[O-].[Na+],H37Rv,,MIC,,>100 µg/mL
OCCNCCNCCC(c1ccccc1)c1ccccc1,,,MIC,,50 µM
CCN(CC)Cc1cc(Nc2c(C)cnc3cc(Cl)ccc23)ccc1O,H37Rv,resazurin,inhibition,6.25 µg/mL,21%
O=C1C(=O)C(Br)(Br)C(Br)=C1Br,H37Rv,,MIC,,>100 µg/mL
Cc1coc(NS(=O)(=O)c2ccc(N=Nc3c(N)[nH]c(=S)[nH]c3=O)cc2)c1C,H37Rv,BACTEC,MIC bound,,>12.5 µg/mL
COC(=O)CCCC(=O)O,H37Rv,,MIC,,100 µg/mL
COc1ccc(C2Oc3cc(OC)cc(OC)c3C(=O)C2Br)cc1,,,EC50,,>12.5 µg/mL
Nc1c(-c2cn(Cc3ccccc3)c3ccccc23)[n+]([O-])c2ccccc2[n+]1[O-],H37Rv,BACTEC,inhibition,12.5 µg/mL,45%
Nc1cccc(/C=C/C(=O)c2ccccc2O)c1,H37Rv,,inhibition,12.5 µg/mL,11%
COc1ccccc1CCNCCNCCc1ccc(Cl)cc1Cl,,,MIC,,50 µM
CCCCC(CC)CN1CN(CC(CC)CCCC)CC(C)(NCCNCc2ccc3c(c2)OCO3)C1,,,MIC,,12.5 µM
C=CC(C)(O)CCc1ccccn1,H37Rv,,MIC bound,,>6.25 µg/mL
C[C@@H]1[C@H]2C[C@@H](C[C@H]1NCCNC[C@@H]1CC[C@H]3C[C@@H]1C3(C)C)C2(C)C,,,MIC,,3.13 µM
O=[N+]([O-])c1ccccc1S(=O)(=O)c1ccccc1,H37Rv,resazurin,inhibition,6.25 µg/mL,0%
NC1CCC(C(=O)O)CC1,H37Rv,,MIC,,>100 µg/mL
CC(C)CCCC(=O)CCCCCCC(=O)CCN(O)C(=O)C(N)CO,H37Rv,BACTEC,inhibition,12.5 µg/mL,5%
COc1ccc(NC(=O)CCC(=O)Nc2ccc(OC)cc2)cc1,H37Rv,,MIC,,>100 µg/mL
Cc1cc2c3ccccc3[nH]c(=O)n2n1,H37Rv,BACTEC,MIC bound,,>12.5 µg/mL
O=C1c2c(I)c(I)c(I)c(I)c2C(=O)N1CCO,H37Rv,,MIC,,>100 µg/mL
COc1ccc2c3c([nH]c2c1N)C(C)NCC3.Cl.Cl,H37Rv,BACTEC,inhibition,12.5 µg/mL,40%
OC(/C=C/c1ccccc1)C(O)/C=C/c1ccccc1,H37Rv,,MIC,,>100 µg/mL
COc1cccc2c1C(=O)c1c(O)c3c(c(O)c1C2=O)C[C@@](O)(C(=O)CSc1nnc(C)s1)C[C@@H]3OC1CC(N)C(O)C(C)O1.Cl,H37Rv,BACTEC,MIC bound,,>12.5 µg/mL
CCCCN(CCCC)Cc1cc(CN(CCCC)CCCC)c(O)c(CN(CCCC)CCCC)c1,H37Rv,,MIC,,50 µg/mL
O=[n+]1c2ccccc2n([O-])c2ccccc21,INH-r,,MIC,,1.6 µg/mL
COc1cc(OC)c2c(c1)OC(c1cc(OC)c(OC)c(OC)c1)C(Br)(Br)C2=O,H37Rv,,EC50,,>12.5 µg/mL
COc1cc(=O)oc(/C=C/C=C/C=C/C(C)=C/C2(C)OC(C)C(C)(O)C2O)c1C,H37Rv,BACTEC,MIC,,≥12.8 µg/mL
CC(O)COc1ccc([As](=O)([O-])O)cc1.[Na+],H37Rv,,MIC,,>100 µg/mL